Measured values from several laboratories, pooled; numbers as filed in NIAID ChemDB.

Shared fields: whole-cell or culture tests; agent: HIV-1; endpoint: EC50

ECn is the concentration giving n% inhibition of infection, replication or growth. Conditions beyond the fields shown may differ between rows. An empty or dashed field is not shown.

smiles,strain,changes,cell line,value
COc1nc(N)nc2c1ncn2OCCOCP(=O)(O)O,,,PBMC,0.01 µM
Nc1ncnc2c1ncn2[C@H]1C[C@]12C[C@H]2CO,,,CEM + CEM-SS,>100 µM
COc1cc2ccnc3c2c(c1OC(=O)c1ccc(CCl)cc1)N(C)C=C3,,,,4 µM
Cc1cn([C@@H]2CO[C@H](CO)[C@H]2CO)c(=O)[nH]c1=O,,,,0.8 µM
Nc1nc(=O)n([C@H]2CO[C@@H](CO)S2)cc1F,,,MT-4,2.5 µg/mL
CCOC(=O)C(C)NP(=O)(OC[C@@H]1O[C@H](n2cc(C)c(=O)[nH]c2=O)C[C@H]1N=[N+]=[N-])OC[C@H]1O[C@@H](n2cc(C)c(=O)[nH]c2=O)C[C@@H]1N=[N+]=[N-],,,CEM + CEM TK-,>10 µM
Nc1nc2c(ncn2OCCOCP(=O)(O)O)c(=O)[nH]1,,,PBMC,0.01 µM
CCCCCCCCCCc1nccn(CCCCO)c1=O,IIIB,,MT-4,>100 µM
Cc1cn([C@@H]2OC3CN[C@@]4(OCC(C)C)CS(=O)(=O)O[C@@]34[C@H]2O[Si](C)(C)C(C)(C)C)c(=O)[nH]c1=O,IIIB,,CEM,8 µM
CC(C)OC(O)c1cc(NC(=O)C2=C(C(F)(F)F)OCCS2)ccc1Cl,,,,11.3 µg/mL
O=C(CNc1ccc2c(c1)OCO2)CSc1nc(CCc2ccccc2)nc2sc3c(c12)CCCC3,,,,92 µM
CCc1c(CC2CCCCC2)nc(SCC(C)C)[nH]c1=O,,,C8166,0.101 µM
S=C(NCCc1ccccc1)Nc1nccs1,,,MT-4,0.35 µg/mL
Nc1ncnc2c1ncn2[C@H]1C[C@@]12C[C@H]2CO,RF,,CEM + CEM-SS,>100 µM
CCCCCCCCCCCCCCc1ccc2ccccc2n1,,,CEM-4fx,108 µM
Cc1cn([C@@H]2O[C@@H]3CN[C@@]4(OCC(C)C)CS(=O)(=O)O[C@@]34[C@H]2O)c(=O)[nH]c1=O,IIIB,,CEM,>250 µM
Nc1nc2c(ncn2[C@H]2C[C@]23C[C@H]3CO)c(=O)[nH]1,,,CEM + CEM-SS,>100 µM
Cc1cn([C@@H]2O[C@@H]3CN[C@@]4(OCCO)CS(=O)(=O)O[C@@]34[C@H]2O[Si](C)(C)C(C)(C)C)c(=O)[nH]c1=O,IIIB,,MT-4,9.5 µM
CC(C)OC(O)c1cc(NC(=S)C2=COCCS2)ccc1Cl,,,,>8 µg/mL
CCCc1ccc2ccccc2n1,,,CEM-4fx,78 µM
O=c1[nH]c(=O)n([C@H]2C[C@H](O)[C@@H](CO)O2)cc1C12B3B4B5B6B(B3B1B42)B1B5C61,LAI,,PBMC,69.8 µM
O=C(CSc1nc(CCc2ccccc2)nc2sc3c(c12)CCCC3)Nc1ccccc1N1CCOCC1,,,,66.5 µM
CCN1C[C@H](C)N2C(=C(O)C3C(=O)N4Cc5ccc(F)cc5OCCCS(=O)(=O)N(C)C(=N4)C32)C1=O,LAII(IIIB),,MT-4,2.55 µM
C=C1C(=O)[C@]23C[C@H]1CC[C@H]2[C@]1(C)CCC[C@@](C)(CC(=O)O)[C@H]1C[C@@H]3OC(C)=O,,,CEM + CEM-SS,0.9 µg/mL
Cc1ccc(S(=O)(=O)NC(Cc2ccccc2)c2nnc(SCc3ccc(F)cc3)o2)cc1,IIIB,,MT-4,>90.83 µg/mL
O=c1ccn(C[C@H]2C[C@H]2[C@H](O)CO)c(=O)[nH]1,LAV,,PBMC,>100 µM
CCN1C[C@H](C)N2C(=C(O)C3C(=O)N4Cc5ccc(Cl)cc5C(=O)N(C)CCCCCCN=C(N4)C32)C1=O,LAII(IIIB),,MT-4,1190 µM
COc1ccc(N(CC(=O)NCCCc2ccccc2)S(=O)(=O)c2ccc(Cl)c([N+](=O)[O-])c2)cc1,IIIB,,,37 µM
COc1cc2ccnc3c2c(c1OC(=O)c1ccc(C#N)cc1)N(C)C=C3,,,,8.2 µM
C#Cc1cnc(C(C)=O)nc1C(C)=O,LAI,,PBMC,>100 µM
CCN1C[C@H](C)N2C(=C(O)C3C(=O)N4Cc5ccc(F)cc5OCCCC(=O)N5CCN(CC5)C(=N4)C32)C1=O,LAII(IIIB),,MT-4,3.07 µM
BrC(Br)=Cc1ccc2ccccc2n1,,,CEM-4fx,3.3 µM
Nc1ccn([C@H]2C[C@H](CO)[C@@H](CO)O2)c(=O)n1,,,H9,0.01 µM
Cc1ccnc(C)c1C(=O)N1CCC(C)(N2CCN([C@@H](C)c3ccc(C(F)(F)F)cc3)[C@@H](C)C2)CC1,BaL,,TZM-bl,0.17 µM
O=c1[nH]cnc2c1ncn2C[C@H]1C[C@H]1CO,LAV,,PBMC,>100 µM
Nc1ncnc2c1ncn2[C@H]1C[C@@]12C[C@@H]2CO,RF,,CEM + CEM-SS,>100 µM
CC1(c2nc3ccccc3[nH]2)CCC(C(=O)O)C(C)(C)O1,RF,,CEM + CEM-SS,>200 µM
Nc1nc2c(ncn2OCC(CO)OCP(=O)(O)O)c(=O)[nH]1,,,PBMC,0.06 µM
COc1cc2ccnc3c2c(c1OC(=O)c1ccccc1C)N(C)C=C3,,,,1.3 µM
CSCCC(c1nnc(SCc2ccc(Br)cc2)o1)N(Cc1ccc(Br)cc1)S(=O)(=O)c1ccc(C)cc1,IIIB,,MT-4,>125 µg/mL
Cc1cc(C)c(S(=O)(=O)OCC2OC3OC4C(CO)OC(OC5C(CO)OC(OC6C(CO)OC(OC7C(CO)OC(OC8C(CO)OC(OC9C(C[n+]%10ccccc%10)OC(OC2C(O)C3O)C(O)C9O)C(O)C8O)C(O)C7O)C(O)C6O)C(O)C5O)C(O)C4O)c(C)c1,KK-5(AC),,PBMC,180 µg/mL
Cc1cn([C@@H]2CC[C@H](COC(=O)CCCCCCCCC(=O)OC[C@H]3O[C@@H](n4cc(C)c(=O)[nH]c4=O)C[C@@H]3N=[N+]=[N-])O2)c(=O)[nH]c1=O,IIIB,,CEM,0.005 µM
Nc1nc2c(ncn2C[C@H]2C[C@H]2[C@H](O)CO)c(=O)[nH]1,LAV,,PBMC,>100 µM
CCCCCCCCCCc1nccn(COCCO)c1=O,IIIB,,MT-4,>100 µM
Cc1c(CC2CCCCC2)nc(SCC(C)C)[nH]c1=O,,,C8166,1.734 µM
Cc1cn([C@H]2C[C@H](N=[N+]=[N-])[C@@H](CO)O2)c(=O)[nH]c1=O,,,TZM-bl,0.085 µM
COc1cc(C)c(-c2ccc(O)c3c2C[C@@H](C)N[C@@H]3C)c2ccc(-c3ccc4c(-c5ccc(O)c6c5C[C@@H](C)N[C@@H]6C)c(C)cc(OC)c4c3O)c(O)c12,RF,,CEM,27 µg/mL
COc1cc2ccnc3c2c(c1OC(=O)c1ccc(C)cc1)N(C)C=C3,,,,9.2 µM
COC(=O)/C=C/c1ccc2ccccc2n1,,,CEM-4fx,>100 µM
c1ccc2[nH]c(C3CCCCO3)nc2c1,RF,,CEM + CEM-SS,>6.33 µM
CCCCCCCCCCCC/C=C/c1ccc2ccccc2n1,,,CEM-4fx,>100 µM
CNC(=O)[C@@H](NC(=O)[C@@](O)(CCCN(Cc1ccc(-c2ccccn2)cc1)NC(=O)[C@@H](NC(=O)OC)C(C)(C)C)Cc1ccccc1)C(C)(C)C,,,,1.9 µM
CCn1c(=O)oc2cc(S(=O)(=O)NCC(O)COc3ccccc3)ccc21,,,MAGI,100 µM
CCCCCCCCCCCCCCC(=O)OC[C@H]1O[C@@H](n2cc(C)c(=O)[nH]c2=O)C[C@@H]1N=[N+]=[N-],IIIB,,SupT1,>100 µg/mL
CC(NS(=O)(=O)c1ccc(Cl)cc1)c1nnc(SCc2ccc(F)cc2)o1,IIIB,,MT-4,>58.75 µg/mL
Nc1nc2c(ncn2[C@H]2CS[C@@H](CO)O2)c(=O)[nH]1,,,MT-4,>100 µg/mL
CC(C)OC(O)c1cc(NC(=S)C2=C(c3ccccc3)OCCS2)ccc1Cl,,,,>8.4 µg/mL
Cc1cc(S(N)(=O)=O)ccc1NC(=O)COc1ccc(Cl)cc1C(=O)c1cc(F)cc(C(F)(F)F)c1,IIIB,RT-Y181C,MT-4,0.0014 µM
Cc1c(CC2CCCCC2)nc(SCC(=O)c2ccccc2)[nH]c1=O,,,C8166,0.0758 µM
Cc1nc2ccccc2c(-c2ccc(Cl)cc2)c1[C@H](OC(C)(C)C)C(=O)O,,,MT-4,0.055 µM
CCCCCSCCCCCCCC(=O)OC[C@H]1O[C@@H](n2cc(C)c(=O)[nH]c2=O)C[C@@H]1F,IIIB,,SupT1,>100 µg/mL
CC(C)OC(O)c1cc(NC(=O)C2=C(c3ccccc3)OCCS2)ccc1Cl,,,,33.3 µg/mL
CC(NS(=O)(=O)c1ccc(Cl)cc1)c1nnc(SCc2ccccc2)o1,IIIB,,MT-4,>65.63 µg/mL
Cc1cc(C#N)cc(C)c1Oc1nc(Nc2ccc(C#N)cc2)nc(N)c1Br,,NL/2AZT,TZM-bl,0.036 µM
Cc1c(CC2CCCCC2)nc(SCc2ccccc2)[nH]c1=O,,,C8166,1.254 µM
CC(C)c1ccc2ccccc2n1,,,CEM-4fx,4.6 µM
COc1ccc2oc3ccc(O)cc3c(=O)c2c1O,,,,0.79 µg/mL
CC1=C(C(=O)Nc2ccc(Cl)c(C(O)OC(C)C)c2)SCCS1,,,,>6.8 µg/mL
COc1ncc(C#C[Si](C)(C)C)c(OC)n1,LAI,,PBMC,1.2 µM
CCN1C[C@H](C)N2C(=C(O)C3C(=O)N4Cc5ccc(F)cc5C(=O)NCCCCCN=C(N4)C32)C1=O,LAII(IIIB),,MT-4,797 µM
O=C1Nc2ccc(Cl)cc2[C@@](C#CC2CC2)(C(F)(F)F)O1,,K103N,MT-4,0.0652 µM
CCN1C[C@H](C)N2C(=C(O)C3C(=O)N4Cc5ccc(F)cc5OCCCCS(=O)(=O)N(C)C(=N4)C32)C1=O,LAII(IIIB),,MT-4,1.14 µM
C[Si](C)(C)C#Cc1ccc2ccccc2n1,,,CEM-4fx,0.5 µM
Nc1ncnc2c1ncn2[C@H]1C[C@]12C[C@@H]2CO,,,CEM + CEM-SS,>100 µM
Nc1ncnc2c1ncn2[C@@H]1CO[C@H](CO)S1,,,MT-4,50 µg/mL
Clc1cccc(Nc2nc(SCCN3CCOCC3)nc3c2cnn3CC(Cl)c2ccccc2)c1,,,,16.54 µM
CCCCCCCCCCCCCCCCc1ccc2ccccc2n1,,,CEM-4fx,>300 µM
CCOC(=O)/C=C/c1ccc(OC(=O)CCC(=O)Oc2c(C)c(C)c3c(c2C)CC[C@@](C)(CCC[C@H](C)CCC[C@H](C)CCCC(C)C)O3)cc1,,,U1/HIV-1 (TNF-alpha stimulated) + U1,~10 µM
C=C(C)[C@@H]1CC[C@]2(NC(=O)N[C@@H](C(=O)O)C(C)C)CC[C@]3(C)[C@H](CC[C@@H]4[C@@]5(C)CC[C@H](OC(=O)CC(C)(C)CC(=O)O)C(C)(C)[C@@H]5CC[C@]43C)[C@@H]12,IIIB,,MT-2,<0.199 µM
CCCCNP(=O)(OC[C@@H]1O[C@H](n2cc(C)c(=O)[nH]c2=O)C[C@H]1N=[N+]=[N-])OC[C@H]1O[C@@H](n2cc(C)c(=O)[nH]c2=O)C[C@@H]1N=[N+]=[N-],,,CEM + CEM TK-,>10 µM
CC12CCC(C(=O)n3c1nc1ccccc13)C(C)(C)O2,RF,,CEM + CEM-SS,>200 µM
COc1cc2ccnc3c2c(c1O)N(C)C=C3,,,,0.6 µM
Cc1ccc(S(=O)(=O)N(Cc2ccc(Br)cc2)C(C)c2nnc(SCc3ccc(Br)cc3)o2)cc1,IIIB,,MT-4,>125 µg/mL
CCN1CCN2C(=C(O)C3C(=O)N4Cc5ccc(F)cc5OCCCCCNC(=O)C(=N4)C32)C1=O,LAII(IIIB),,MT-4,1.49 µM
Nc1ncnc2c1ncn2[C@@H]1C[C@@H](O)[C@@H](O)[C@H]1O,IIIB,,MT-4,>0.8 µM